Literature values, collected in patent US9427426B2 (priority 2008, dated 2016).

System: rat
Conditions: in vivo; cited from earlier work

For `CC(=O)Nc1ccc(O)cc1` [Paracetamol], the LD50 per os is listed as 1944 mg/kg.
